Among the data in patent publication US20230312571A1, “RING-MODIFIED PROLINE SHORT PEPTIDE COMPOUND AND USE THEREOF” (priority 2021, published 2023) are IC50, EC50 and CC50 values, retold here.

The target in series [1] is SARS-CoV-2 Mpro (Severe acute respiratory syndrome coronavirus 2 (2019-nCoV) (SARS-CoV-2), UniProt P0DTD1). Kind of series: In vitro anti-novel coronavirus Mpro protease activity (fluorescent substrate cleavage). In kind it is biochemical. As to conditions: 25 nM Mpro protein, 25 µM substrate.
Series [2] relates to coronavirus HCoV OC43. Kind of series: In vitro anti-coronavirus activity by cytopathic model (CPE, CellTiter Glo). As to conditions: HCoV OC43 100 TCID50/well, MRC5 cells, 5 days. The protocol:
MRC5 cells and coronavirus HCoV OC43 were purchased from ATCC.
(§1) MRC5 cells were cultured in MEM (Sigma) medium supplemented with 10% fetal bovine serum (Excell), 1% double antibody (Hyclone), 1%L-glutamine (Gibco) and 1% non-essential amino acids (Gibco). MEM (Sigma) medium supplemented with 5% fetal bovine serum (Excell), 1% double antibody (Hyclone), 1% L-glutamine (Gibco) and 1% non-essential amino acid (Gibco) was used as the experimental culture medium.
(§2) Cells were inoculated into a 96 microwell plate at a certain density (Table 6) and cultured overnight in an incubator at 5% CO2 and 37° C. On the second day, the compound was added after doubling dilution (8 concentration points, duplicate wells), with 50 µL per well. Then the diluted virus was added to the cells at 100 TCID50 per well, 50 µL per well. Cell control (cell without compound treatment or virus infection), virus control (cell infected with virus without compound treatment) and culture medium control (only culture medium) were set. […] Cell viability was detected using the cell viability assay kit CellTiter Glo (Promega). […]
(§3) GraphPad Prism was used to perform nonlinear fitting analysis on the inhibition rate and cell viability of the compound, and the half effective concentration (EC50) and half cytotoxic concentration (CC50) of the compound were calculated.
(In general: Damage to the host cells serves as the signal in cytopathic effect assays.)

The subject of series [3] is MRC5 cells. Kind of series: Cytotoxicity in the cytopathic model, without virus infection (CellTiter Glo). The protocol: as §1, §2, §3

pEC50, pIC50: −log10 of the molar value. Where two headings read alike, the source gives them in different places.

By pIC50 is commonly meant −log10 of the IC50, conventionally taken in molar units. The pEC50 is −log10 of the EC50, conventionally taken in molar units. A low value points to a large EC50. The CC50 is the concentration that lowers cell viability or growth by half. Low values mean greater toxicity to the cells, high ones lower toxicity to the cells. In turn, `CC(C)(C)[C@H](NC(=O)C(F)(F)F)C(=O)N1[C@@H]2CC[C@@H](C2)[C@H]1C(=O)N[C@H](C#N)C[C@@H]1CCNC1=O` had a pIC50 in series [1] of 7.03. In series [2], the negative-log EC50 (pEC50) was 6.72. Moreover, the CC50 in series [3] (MRC5 cells, 5 days, no virus) is > 10 µM.

Regarding `N#C[C@H](C[C@@H]1CCNC1=O)NC(=O)[C@@H]1[C@H]2CC[C@H](C2)N1C(=O)[C@@H](NC(=O)COc1ccc(F)cc1)C12CC3CC(CC(C3)C1)C2`, the negative-log IC50 (pIC50) in series [1] was 6.92.

Compound `CC(C)(C)[C@H](NC(=O)C(F)(F)F)C(=O)N1C[C@@H]2CCC[C@@H]2[C@H]1C(=O)N[C@H](C#N)C[C@@H]1CCNC1=O` showed a pEC50 in series [2] of 7.08. Also, the CC50 in series [3] was > 10 µM.
